## PSTVd loop 15 mutant pool in Nicotiana benthamiana

Data from the supplement of Wu et al. 2024, doi:10.1371/journal.ppat.1012142.

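Three N. benthamiana plants were inoculated with the whole mutant pool. Samples came from the inoculated region at 5 days, the leaf margin at 10 and upper systemic leaves at 12.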

Region: loop 15 of PSTVd (intermediate strain), upper and lower strand joined, each 5' to 3', the first 7 letters being the upper strand, closing pairs included. Wild type: GGAAACCGCUACUAC. Varied positions (N): GGAAACCGNNNNNNC.

Numbers give reads per thousand; 0 = not seen among the reads, higher = more abundant. Each site shows the three plants. "Pool" is the share in the plasmid pool used as inoculum, on the same scale. The inoculated region was read from the minus strand, the other sites from the plus strand. With 43,870-66,106 reads a sample, very low values are single reads. Sequences that differ at fixed positions probably stem from PCR or sequencing errors, and defective variants can be carried along by functional ones. For reference, wild type rose from 33.9 per thousand in the pool to 202, 200, 159 (inoculated region), 724, 746, 710 (leaf margin) and 856, 883, 880 (systemic leaves).

| sequence | pool | inoculated region | leaf margin | systemic leaves |
|---|---|---|---|---|
| GGAAACCGUGUCGUC | 0.256 | 0.115 / 0.112 / 0.0571 | 0.0162 / 0 / 0 | 0 / 0 / 0 |
| GGAAACCGUGUCUAC | 0.160 | 0.344 / 0.321 / 0.381 | 0.0970 / 0.0891 / 0.0601 | 0.0161 / 0 / 0 |
| GGAAACCGUGUCUCC | 0.208 | 0.0819 / 0.0964 / 0.0571 | 0 / 0.0223 / 0 | 0 / 0 / 0 |
| GGAAACCGUGUCUGC | 0.304 | 0.0819 / 0.0803 / 0.0381 | 0.0323 / 0 / 0.0200 | 0 / 0 / 0 |
| GGAAACCGUGUCUUC | 0.224 | 0.0164 / 0.0643 / 0.133 | 0 / 0.0223 / 0.0200 | 0.0161 / 0 / 0 |
| GGAAACCGUGUGAAC | 0.128 | 0.295 / 0.305 / 0.400 | 0.146 / 0.111 / 0.100 | 0.0644 / 0 / 0 |
| GGAAACCGUGUGACC | 0.144 | 0.131 / 0.0482 / 0.0190 | 0 / 0 / 0 | 0 / 0 / 0.0228 |
| GGAAACCGUGUGAGC | 0.256 | 0.0655 / 0.112 / 0.171 | 0 / 0 / 0 | 0 / 0 / 0 |
| GGAAACCGUGUGAUC | 0.192 | 0.0819 / 0.112 / 0.0762 | 0.0162 / 0 / 0.0401 | 0 / 0 / 0 |
| GGAAACCGUGUGCAC | 0.192 | 0.180 / 0.0161 / 0.171 | 0 / 0 / 0 | 0.0161 / 0 / 0 |
| GGAAACCGUGUGCCC | 0.192 | 0.115 / 0.0803 / 0.0762 | 0 / 0 / 0.0200 | 0 / 0 / 0 |
| GGAAACCGUGUGCGC | 0.144 | 0.115 / 0.145 / 0.0952 | 0 / 0 / 0 | 0 / 0 / 0 |
| GGAAACCGUGUGCUC | 0.128 | 0.0819 / 0.129 / 0.0762 | 0 / 0 / 0 | 0 / 0 / 0 |
| GGAAACCGUGUGGAC | 0.352 | 0.131 / 0.0321 / 0.0952 | 0 / 0 / 0.0200 | 0 / 0 / 0 |
| GGAAACCGUGUGGCC | 0.160 | 0.0819 / 0.0482 / 0.0571 | 0 / 0 / 0.0401 | 0 / 0 / 0 |
| GGAAACCGUGUGGGC | 0.208 | 0.115 / 0.0803 / 0.0381 | 0 / 0 / 0.0200 | 0 / 0 / 0 |
| GGAAACCGUGUGGUC | 0.368 | 0.0819 / 0.0643 / 0.0190 | 0 / 0 / 0 | 0.0161 / 0 / 0 |
| GGAAACCGUGUGUAC | 0.336 | 0.442 / 0.386 / 0.324 | 0.194 / 0.111 / 0.200 | 0 / 0.106 / 0.137 |
| GGAAACCGUGUGUCC | 0.224 | 0.0819 / 0.112 / 0.0571 | 0.0162 / 0.0223 / 0.0401 | 0 / 0 / 0 |
| GGAAACCGUGUGUGC | 0.144 | 0.377 / 0.321 / 0.305 | 0.0323 / 0.134 / 0.240 | 0.0483 / 0 / 0 |
| GGAAACCGUGUGUUC | 0.208 | 0.246 / 0.193 / 0.362 | 0.0970 / 0.0668 / 0.120 | 0.0805 / 0.0605 / 0.0684 |
| GGAAACCGUGUUAAC | 0.336 | 0.229 / 0.177 / 0.114 | 0 / 0 / 0.0401 | 0.0161 / 0 / 0 |
| GGAAACCGUGUUACC | 0.224 | 0.0819 / 0.0964 / 0.190 | 0.0162 / 0.0223 / 0.0200 | 0 / 0 / 0 |
| GGAAACCGUGUUAGC | 0.256 | 0.0983 / 0.0803 / 0.0571 | 0.0162 / 0.0223 / 0.0200 | 0 / 0 / 0 |
| GGAAACCGUGUUAUC | 0.112 | 0.0819 / 0.0482 / 0.190 | 0 / 0 / 0.0601 | 0 / 0 / 0 |
| GGAAACCGUGUUCAC | 0.208 | 0.131 / 0.0803 / 0.0952 | 0 / 0 / 0 | 0.0161 / 0 / 0 |
| GGAAACCGUGUUCCC | 0.272 | 0.0655 / 0.0482 / 0.0571 | 0 / 0 / 0.0200 | 0 / 0 / 0 |
| GGAAACCGUGUUCGC | 0.272 | 0.164 / 0.209 / 0.305 | 0 / 0.0223 / 0 | 0.0161 / 0 / 0 |
| GGAAACCGUGUUCUC | 0.304 | 0.0328 / 0.0643 / 0.0571 | 0.0162 / 0.0223 / 0.0200 | 0 / 0 / 0 |
| GGAAACCGUGUUGAC | 0.192 | 0.115 / 0.112 / 0.0381 | 0.0162 / 0 / 0.0401 | 0 / 0 / 0 |
| GGAAACCGUGUUGCC | 0.176 | 0.0819 / 0.0643 / 0.0571 | 0.0323 / 0 / 0 | 0 / 0 / 0 |
| GGAAACCGUGUUGGC | 0.192 | 0.0819 / 0.0964 / 0.114 | 0.0162 / 0.0223 / 0 | 0 / 0 / 0 |
| GGAAACCGUGUUGUC | 0.272 | 0.0328 / 0.0964 / 0.0952 | 0 / 0 / 0 | 0 / 0 / 0 |
| GGAAACCGUGUUUAC | 0.368 | 0.229 / 0.193 / 0.362 | 0.113 / 0.156 / 0.140 | 0.0483 / 0 / 0 |
| GGAAACCGUGUUUCC | 0.192 | 0.0819 / 0.129 / 0.152 | 0 / 0.0223 / 0.0601 | 0 / 0 / 0 |
| GGAAACCGUGUUUGC | 0.208 | 0.131 / 0.0803 / 0.0571 | 0.0162 / 0 / 0.0200 | 0 / 0 / 0 |
| GGAAACCGUGUUUUC | 0.192 | 0.0491 / 0.0643 / 0.152 | 0 / 0.0445 / 0.0401 | 0 / 0 / 0 |
| GGAAACCGUUAAAAC | 0.224 | 0.246 / 0.257 / 0.590 | 0.162 / 0.200 / 0.180 | 0.0322 / 0.0303 / 0.0456 |
| GGAAACCGUUAAACC | 0.208 | 0.180 / 0.0643 / 0.0762 | 0 / 0 / 0.0401 | 0 / 0 / 0 |
| GGAAACCGUUAAAGC | 0.192 | 0.0819 / 0.112 / 0.0762 | 0.0162 / 0 / 0.0200 | 0 / 0 / 0 |
| GGAAACCGUUAAAUC | 0.240 | 0.377 / 0.273 / 0.343 | 0.0808 / 0.0891 / 0.240 | 0.0483 / 0.0908 / 0.160 |
| GGAAACCGUUAACAC | 0.128 | 0.311 / 0.418 / 0.228 | 0.129 / 0.0891 / 0.100 | 0.0966 / 0.0151 / 0.0912 |
| GGAAACCGUUAACCC | 0.272 | 0.0655 / 0.0482 / 0.0952 | 0 / 0 / 0 | 0 / 0 / 0 |
| GGAAACCGUUAACGC | 0.176 | 0.262 / 0.241 / 0.533 | 0.0970 / 0.0668 / 0.0401 | 0.0483 / 0 / 0 |
| GGAAACCGUUAACUC | 0.240 | 0.360 / 0.321 / 0.248 | 0.113 / 0.0445 / 0.0601 | 0 / 0.0908 / 0.0456 |
| GGAAACCGUUAAGAC | 0.224 | 0.377 / 0.177 / 0.286 | 0.129 / 0.0891 / 0.120 | 0.0161 / 0 / 0 |
| GGAAACCGUUAAGCC | 0.176 | 0.0983 / 0.161 / 0.0571 | 0.0323 / 0.0668 / 0 | 0 / 0 / 0 |
| GGAAACCGUUAAGGC | 0.224 | 0.0655 / 0.112 / 0.133 | 0.0162 / 0 / 0.0200 | 0 / 0 / 0 |
| GGAAACCGUUAAGUC | 0.224 | 0.475 / 0.305 / 0.324 | 0.162 / 0.178 / 0.0200 | 0.0322 / 0 / 0 |
| GGAAACCGUUAAUAC | 0.144 | 0.278 / 0.273 / 0.343 | 0.0647 / 0.0668 / 0.260 | 0.0161 / 0 / 0 |
| GGAAACCGUUAAUCC | 0.288 | 0.360 / 0.289 / 0.248 | 0.146 / 0.0223 / 0.200 | 0.0322 / 0 / 0.114 |
| GGAAACCGUUAAUGC | 0.288 | 0.213 / 0.305 / 0.267 | 0.146 / 0.0223 / 0.160 | 0.0161 / 0.0605 / 0.137 |
| GGAAACCGUUAAUUC | 0.192 | 0.344 / 0.353 / 0.267 | 0.129 / 0.0668 / 0.160 | 0.145 / 0.0605 / 0.137 |
| GGAAACCGUUACAAC | 0.144 | 0.246 / 0.225 / 0.343 | 0.129 / 0.0891 / 0.200 | 0.0483 / 0.0605 / 0.114 |
| GGAAACCGUUACACC | 0.272 | 0.0328 / 0.112 / 0.0571 | 0.0162 / 0 / 0 | 0 / 0 / 0 |
| GGAAACCGUUACAGC | 0.288 | 0.147 / 0.161 / 0.133 | 0 / 0.0223 / 0 | 0 / 0 / 0 |
| GGAAACCGUUACAUC | 0.288 | 0.278 / 0.353 / 0.362 | 0.129 / 0.0445 / 0.220 | 0.0483 / 0.0756 / 0 |
| GGAAACCGUUACCAC | 0.256 | 0.164 / 0.305 / 0.495 | 0.0970 / 0.0668 / 0.220 | 0.0322 / 0.0151 / 0.0684 |
| GGAAACCGUUACCCC | 0.208 | 0.131 / 0.0803 / 0.0762 | 0.0162 / 0 / 0.0200 | 0.0161 / 0 / 0 |
| GGAAACCGUUACCGC | 0.208 | 0.246 / 0.289 / 0.248 | 0.113 / 0.0668 / 0.160 | 0.0483 / 0 / 0 |
| GGAAACCGUUACCUC | 0.112 | 0.246 / 0.321 / 0.438 | 0.113 / 0.111 / 0.140 | 0.0483 / 0.106 / 0.0684 |
| GGAAACCGUUACGAC | 0.256 | 0.262 / 0.321 / 0.286 | 0.113 / 0.0223 / 0.160 | 0.0644 / 0 / 0 |
| GGAAACCGUUACGCC | 0.128 | 0.131 / 0.0482 / 0.0952 | 0 / 0.0223 / 0.0200 | 0 / 0 / 0.0228 |
| GGAAACCGUUACGGC | 0.192 | 0.0983 / 0.0964 / 0.0571 | 0.0162 / 0 / 0 | 0 / 0 / 0 |
| GGAAACCGUUACGUC | 0.288 | 0.0491 / 0.0803 / 0.0381 | 0.0323 / 0 / 0.0200 | 0 / 0 / 0 |
| GGAAACCGUUACUAC | 0.848 | 25.6 / 25.9 / 25.5 | 17.9 / 16.3 / 13.3 | 8.82 / 7.28 / 6.20 |
| GGAAACCGUUACUCC | 0.208 | 0.344 / 0.337 / 0.267 | 0.0808 / 0.134 / 0.140 | 0.0322 / 0.0908 / 0.0684 |
| GGAAACCGUUACUGC | 0.160 | 0.311 / 0.305 / 0.343 | 0.0808 / 0.111 / 0.120 | 0.0483 / 0.0151 / 0.0456 |
| GGAAACCGUUACUUC | 0.176 | 0.311 / 0.305 / 0.324 | 0.0647 / 0.0891 / 0.140 | 0.0322 / 0.0605 / 0.0684 |
| GGAAACCGUUAGAAC | 0.176 | 0.262 / 0.305 / 0.286 | 0.0808 / 0.0891 / 0.100 | 0.0483 / 0.0605 / 0.137 |
| GGAAACCGUUAGACC | 0.256 | 0.197 / 0.321 / 0.248 | 0.0808 / 0.0668 / 0.160 | 0.0322 / 0.0605 / 0.0228 |
| GGAAACCGUUAGAGC | 0.320 | 0.229 / 0.241 / 0.228 | 0.0647 / 0.0668 / 0.100 | 0.0483 / 0.0908 / 0.0912 |
| GGAAACCGUUAGAUC | 0.272 | 0.393 / 0.386 / 0.381 | 0.0970 / 0.0891 / 0.0401 | 0.0483 / 0.151 / 0.0912 |
| GGAAACCGUUAGCAC | 0.176 | 0.295 / 0.257 / 0.324 | 0.146 / 0.134 / 0.120 | 0 / 0.0605 / 0.0684 |
| GGAAACCGUUAGCCC | 0.128 | 0.0983 / 0.0803 / 0.133 | 0 / 0.0223 / 0.0200 | 0 / 0 / 0 |

Extract of 7 entries:

* GGAAACCGUUAACUC (pool 0.240) -> inoculated region 0.360 / 0.321 / 0.248; leaf margin 0.113 / 0.0445 / 0.0601; systemic leaves 0 / 0.0908 / 0.0456
* GGAAACCGUGUUACC (pool 0.224) -> inoculated region 0.0819 / 0.0964 / 0.190; leaf margin 0.0162 / 0.0223 / 0.0200; systemic leaves 0 / 0 / 0
* GGAAACCGUUAAAGC (pool 0.192) -> inoculated region 0.0819 / 0.112 / 0.0762; leaf margin 0.0162 / 0 / 0.0200; systemic leaves 0 / 0 / 0
* GGAAACCGUUAAGUC (pool 0.224) -> inoculated region 0.475 / 0.305 / 0.324; leaf margin 0.162 / 0.178 / 0.0200; systemic leaves 0.0322 / 0 / 0
* GGAAACCGUUAGCAC (pool 0.176) -> inoculated region 0.295 / 0.257 / 0.324; leaf margin 0.146 / 0.134 / 0.120; systemic leaves 0 / 0.0605 / 0.0684
* GGAAACCGUGUUGCC (pool 0.176) -> inoculated region 0.0819 / 0.0643 / 0.0571; leaf margin 0.0323 / 0 / 0; systemic leaves 0 / 0 / 0
* GGAAACCGUGUGAAC (pool 0.128) -> inoculated region 0.295 / 0.305 / 0.400; leaf margin 0.146 / 0.111 / 0.100; systemic leaves 0.0644 / 0 / 0